Anti-infective test results gathered from many reports (values: NIAID ChemDB through PubChem).

Shared fields: target-level tests; target: CCR5; endpoint: IC50

ICn is the concentration giving n% inhibition. Neighbouring rows are from separate reports.

structure	read by	value
CCN(C(=O)Cc1ccc(S(C)(=O)=O)cc1)C1CCN(CC[C@H](NC(=O)C2CCN(S(=O)(=O)c3ccccc3)CC2)c2ccccc2)CC1	fluorescence	<50 µM
CCCc1ccc(-c2ccc3c(c2)C=C(C(=O)Nc2ccc(CN(C)C4CCOCC4)cc2)CCS3(=O)=O)cc1	radiometric	0.033 µM
CC(=O)N(CCCN1CCC(Cc2ccccc2)CC1)c1ccccc1	radiometric	0.29 µM
CCCCOCCOc1ccc(-c2ccc3c(c2)C=C(C(=O)Nc2ccc(S(=O)Cc4cnnn4CCC)cc2)CCN3CC(C)C)cc1	radiometric	0.012 µM
CN1CC(C(=O)N(CCCN2CCN(Cc3ccccc3)CC2)c2ccccc2)CC1=O	radiometric	1.9 µM
CCCCOCCOc1ccc(-c2ccc3c(c2)C=C(C(=O)Nc2ccc(S(=O)Cc4nccs4)cc2)CCN3CC(C)C)cc1	radiometric	0.043 µM
CCCOCCOc1ccc(-c2ccc3c(c2)C=C(C(=O)Nc2ccc(CN(C)C4CCOCC4)cc2)CCS3(=O)=O)cc1	radiometric	0.035 µM
CCN(C(=O)Cc1ccc(S(C)(=O)=O)cc1)C1CCN(CC[C@H](NC(=O)C2CCN(S(=O)(=O)Cc3ccccc3)CC2)c2ccccc2)CC1	fluorescence	<50 µM
CC(=O)N1CCC(C(=O)N(CCCN2CCC(Cc3ccc(F)cc3)CC2)c2cccc(Cl)c2)CC1	radiometric	0.003 µM
CN1CC(C(=O)N(CCCN2CCC(c3ccccc3)CC2)c2ccccc2)CC1=O	radiometric	3.6 µM
CCCCOCCOc1ccc(-c2ccc3c(c2)C=C(C(=O)Nc2ccc([S@](=O)Cc4cncn4CCC)cc2)CCN3CCC)cc1	radiometric	0.0083 µM
CC(C)C(=O)N1CCC(C(=O)N(CCCN2CCC(Cc3ccccc3)CC2)c2ccccc2)CC1	radiometric	0.039 µM
CCN(C(=O)Cc1ccc(S(C)(=O)=O)cc1)C1CCN(CC[C@H](NC(=O)OCc2ccccc2)c2ccccc2)CC1	fluorescence	<50 µM
CCCCOCCOc1ccc(-c2ccc3c(c2)C=C(C(=O)Nc2ccc(CN(C)C4CCOCC4)cc2)CCN3CCC(C)C)cc1	radiometric	0.032 µM
CN1CC(C(=O)N(CCCCN2CCC(C(=O)c3ccc(F)cc3)CC2)c2ccccc2)CC1=O	radiometric	3.2 µM
CSc1ccc(CC2CCN(CCCN(C(=O)C3CCN(S(C)(=O)=O)CC3)c3ccc(Cl)c(Cl)c3)CC2)cc1	radiometric	0.0031 µM
O=C(Nc1ccc(Cl)cc1)N(CCCN1CCC(Cc2ccccc2)CC1)c1ccccc1	radiometric	0.0059 µM
O=C(C1CCCNC1)N(CCCN1CCC(Cc2ccccc2)CC1)c1ccccc1	radiometric	0.78 µM
CCCCOCCOc1ccc(-c2ccc3c(c2)C=C(C(=O)Nc2ccc(CN(C)C4CCOCC4)cc2)CCN3C)cc1	radiometric	0.021 µM
CCCCOCCOc1ccc(-c2ccc3c(c2)C=C(C(=O)Nc2ccc([S@](=O)Cc4cncn4CCC)cc2)CCN3CC(C)C)cc1	radiometric	0.0068 µM
CCN(C(=O)Cc1ccc(S(C)(=O)=O)cc1)C1CCN(CC[C@H](NC(=O)C2CCN(S(=O)(=O)c3ccc(NC(C)=O)cc3)CC2)c2ccccc2)CC1	fluorescence	<50 µM
CCCCOCCOc1ccc(-c2ccc3c(c2)C=C(C(=O)Nc2ccc(CN(C)C4CCOCC4)cc2)CCN3Cc2ccnn2C)cc1	radiometric	0.01 µM
CCCCOCCOc1ccc(-c2ccc3c(c2)C=C(C(=O)Nc2ccc(S(=O)Cc4ncccn4)cc2)CCN3CC(C)C)cc1	radiometric	0.1 µM
CN1CC(C(=O)N(CCCN2CCC(Cc3ccccc3)CC2)c2ccc(Cl)c(Cl)c2)CC1=O	radiometric	0.057 µM
CN1CC(C(=O)N(CCN2CCC(C(=O)c3ccc(F)cc3)CC2)c2ccccc2)CC1=O	radiometric	>10 µM
CN(C(=O)N(CCCN1CCC(Cc2ccccc2)CC1)c1ccccc1)c1ccccc1	radiometric	6.6 µM
CCCCOCCOc1ccc(-c2ccc3c(c2)C=C(C(=O)Nc2ccc([S@@](=O)Cc4cncn4CCC)cc2)CCN3CC(C)C)cc1	radiometric	0.0019 µM
COc1ccc(N(CCCN2CCC(Cc3ccc(F)cc3)CC2)C(=O)C2CCN(C(C)=O)CC2)cc1Cl	radiometric	0.03 µM
CCN(C(=O)Cc1ccc(S(C)(=O)=O)cc1)C1CCN(CC[C@H](NC(=O)OC(C)(C)C)c2cccc(F)c2)CC1	fluorescence	<50 µM
CCOC(=O)c1ccc(NC(=O)N(CCCN2CCC(Cc3ccc(F)cc3)CC2)c2ccccc2)cc1	radiometric	0.28 µM
CN1CCC(C(=O)Nc2ccc(CN(C)C3CCOCC3)cc2)=Cc2cc(-c3ccc(N4CCOCC4)cc3)ccc21	radiometric	0.049 µM
Cc1ccnc(C)c1C(=O)N1CCC(C)(N2CCN([C@@H](C)c3ccc(C(F)(F)F)cc3)[C@@H](C)C2)CC1	fluorescence	>0.1 µM
O=C(Cc1ccccc1)N(CCCN1CCC(Cc2ccccc2)CC1)c1ccccc1	radiometric	0.45 µM

For reference, 3 entries again:

structure | read by | value
CCN(C(=O)Cc1ccc(S(C)(=O)=O)cc1)C1CCN(CC[C@H](NC(=O)OC(C)(C)C)c2cccc(F)c2)CC1 | fluorescence | <50 µM
CCCCOCCOc1ccc(-c2ccc3c(c2)C=C(C(=O)Nc2ccc([S@](=O)Cc4cncn4CCC)cc2)CCN3CCC)cc1 | radiometric | 0.0083 µM
CCOC(=O)c1ccc(NC(=O)N(CCCN2CCC(Cc3ccc(F)cc3)CC2)c2ccccc2)cc1 | radiometric | 0.28 µM